In paper PMC12880088:
No signal at the amounts used counts as a negative.

Target: rYeiE (YeiE-Strep-tag II) (UniProt Q8ZNK8)
Experiment: EMSA
Settings: 800 nM rYeiE, 40 ng DNA; 150 mM KCl, 0.1 mM DTT, 0.1 mM EDTA, 10 mM Tris pH 7.4, 20 min at room temperature; 6% native PAGE, SYBR Green; recombinant protein; residues 1-287; probe letters rebuilt from the primers and the genome

“ATATGACAAATTGATGTCATAAATGTGTTTTAGCAACTCGGATGTATGCATTGTTCCCATCCAGAATAACCAACTTTATTTTTGTGCGACGTAGCCGCACCCCGTGATGTCGCCGGGAAGGCCCGGTAAAAGAAGCAAAAAGGTCAAATGCATAGCAGCGCTCAGACATTATGGACATTGTGACGTATAACGCAGCCTCCCACTGAGATTCGCCTTACACGTTTACATCAATTTTTACAAATGCCTAAGATTTTTCCTAATTCGACGCAACTCTACTCGTCAGCTTCGTGACATACAACG (double strand) [PflhD]”: no binding.
